Data published in PubChem BioAssay AID504720 (Sanford-Burnham Center for Chemical Genomics, 2011).
The entries are a selection whose mix differs from that of the whole data set. Active and inactive are the calls of the source. No stated cut-off is given here; in the data, active means activation above about 50%; inactive means the rest.

Protein sequences, listed by entry. Tags and fused reporters are not part of them.
UniProt P0AE70, whole entry, looked up: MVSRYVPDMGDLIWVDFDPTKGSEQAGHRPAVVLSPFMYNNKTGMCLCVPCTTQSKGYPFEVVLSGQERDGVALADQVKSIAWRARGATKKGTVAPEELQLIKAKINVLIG

These compounds were tested against Endoribonuclease toxin MazF (Escherichia coli (strain K12)) (UniProt P0AE70) (assay: activators of E. coli MazEF toxin-antitoxin RNase, primary screen, biochemical, fluorescence, uHTS (AID 504720)). Conditions: FAM/BHQ RNA-DNA oligo cleavage fluorescence, 5 h, at 20 µM, stronger effect = higher value.

How did the activation turn out when Cc1cc(C)cc(N(C(=O)c2ccccc2)C2CCN(C(=O)OC(C)(C)C)CC2)c1 was run?
The activation was inactive: 11.9%.

With O=C(NCC1(N2CCCCC2)CCCCC1)c1ccc(Cl)nc1 as the compound, how does the activation read?
Its activation is inactive: -2.74%.

How did the activation turn out when O=C(NCC1(N2CCOCC2)CCCCC1)c1cc2ccccc2o1 was run?
The activation was inactive: -4.29%.

With COc1ccc(Cl)cc1C(=O)NCC1(N2CCOCC2)CCCCC1 as the compound, how does the activation read?
Its activation is inactive: 0.297%.

How did the activation turn out when O=C(OC1CN2CCC1CC2)C1c2ccccc2Oc2ccccc21 (stereo unspecified) was run?
Its activation is inactive: -8.18%.

For O=C(NCC1(N2CCCCC2)CCCCC1)c1ccc(Cl)s1, which activation is on record?
The activation was inactive: 6.76%.

Which activation does the source give for N#CC1(Nc2ccccc2)CCN(Cc2ccccc2)CC1 here?
The activation was inactive: -8.84%.

Which activation does the source give for CCOC(=O)N1CCC(Nc2ccc(OC)cc2)CC1 here?
The activation was inactive: 8.16%.

For COc1ccc(C(=O)NCC2(N3CCCCC3)CCCCC2)c(OC)c1OC, which activation is on record?
Its activation is inactive: -6.09%.

How did the activation turn out when CC(C)(C)OC(=O)N1CCC(N(C(=O)c2ccccc2)c2ccc(F)cc2)CC1 was run?
Its activation is inactive: 8.28%.

How did the activation turn out when COc1ccc(C(=O)NCC2(N3CCCCC3)CCCCC2)cc1 was run?
Its activation is inactive: 1.66%.

O=C(NCC1(N2CCCCC2)CCCCC1)c1cccs1 was tested. Which activation did it give?
Its activation is inactive: -2.11%.

How did the activation turn out when O=C(NCC1(N2CCCCC2)CCCCC1)c1ccc(=O)[nH]c1 was run?
Its activation is inactive: 1.53%.

How did the activation turn out when Cc1cccc(NC2(C#N)CCN(Cc3ccccc3)CC2)c1 was run?
The activation was inactive: 11.7%.

Which activation does the source give for CSc1ccccc1C(=O)NCC1(N2CCCCC2)CCCCC1 here?
Its activation is inactive: 0.56%.

For COc1cc(C(=O)NCC2(N(C)C)CCCCC2)ccc1OC(F)F, which activation is on record?
The activation was inactive: -8.83%.

CCOC(=O)N1CCC(Nc2cccc(C)c2)CC1 was tested. Which activation did it give?
The activation was inactive: 7.36%.

O=C1CCN(Cc2ccccc2)CC1 was tested. Which activation did it give?
Its activation is inactive: -1.41%.

How did the activation turn out when CCOc1ccc(C)cc1CN(CCCl)CCCl was run?
Its activation is inactive: 1.2%.

For CCOC(=O)N1CCC(Nc2ccc(F)cc2)CC1, which activation is on record?
Its activation is inactive: 0.631%.

Which activation does the source give for COc1ccc(NC2CCN(CCc3ccccc3)CC2)c(OC)c1 here?
Its activation is inactive: 4.94%.

For O=C(NCC1(N2CCCCC2)CCCCC1)c1ccc(F)cc1, which activation is on record?
The activation was inactive: -0.501%.

With CCCCOc1ccc(C(=O)NCC2(N3CCOCC3)CCCCC2)cc1 as the compound, how does the activation read?
The activation was inactive: 1.89%.

For O=P1(N(CCCl)CCCl)SCCCS1, which activation is on record?
Its activation is inactive: -3.31%.

With O=C(NCC1(N2CCCCC2)CCCCC1)c1cccc(C(F)(F)F)c1 as the compound, how does the activation read?
The activation was inactive: -4.06%.

O=C(NCC1(N2CCOCC2)CCCCC1)c1cc(=O)[nH]c2ccccc12 was tested. Which activation did it give?
The activation was inactive: 2.46%.

COc1cc(C(=O)NCC2(N3CCCCC3)CCCCC2)ccc1OC(F)F was tested. Which activation did it give?
Its activation is inactive: 10.2%.

How did the activation turn out when COc1ccc(NC2CCN(C(=O)OC(C)(C)C)CC2)cc1 was run?
Its activation is inactive: 8.28%.

For CC(C)c1ccc(C(=O)NCC2(N3CCOCC3)CCCCC2)cc1, which activation is on record?
Its activation is inactive: 3.62%.

Which activation does the source give for CN1CCN(CCOC(=O)C(O)(c2ccccc2)c2ccccc2)CC1 here?
Its activation is inactive: -3.91%.

For O=C(NCC1(N2CCCCC2)CCCCC1)c1ccc(OC(F)F)cc1, which activation is on record?
The activation was inactive: 4.57%.

For N#CC1(Nc2ccccc2)CCN(CCc2ccccc2)CC1, which activation is on record?
The activation was inactive: -3.52%.

CCN1CCC(Nc2ccc(Cl)cc2)CC1 was tested. Which activation did it give?
The activation was inactive: 8.48%.

Which activation does the source give for O=C(NCC1(N2CCCCC2)CCCCC1)c1cccc([N+](=O)[O-])c1 here?
Its activation is inactive: 3.62%.

How did the activation turn out when CSc1ccc(C(=O)NCC2(N3CCOCC3)CCCCC2)cc1 was run?
The activation was inactive: -0.67%.

O=C(NCC1(N2CCCCC2)CCCCC1)c1cncc(Br)c1 was tested. Which activation did it give?
The activation was inactive: -1.63%.

For CN1CCC(Nc2cccc(F)c2)CC1, which activation is on record?
Its activation is inactive: 4.18%.

With CCCOc1ccc(C(=O)NCC2(N(C)C)CCCCC2)cc1OC as the compound, how does the activation read?
Its activation is inactive: -1.68%.

How did the activation turn out when Cc1ccc(C(=O)NCC2(N(C)C)CCCCC2)o1 was run?
The activation was inactive: 3.36%.

CC(C)c1ccc(NC2CCN(C(=O)OC(C)(C)C)CC2)cc1 was tested. Which activation did it give?
The activation was inactive: 5.82%.

Which activation does the source give for CN(C)c1cccc(C(=O)NCC2(N3CCCCC3)CCCCC2)c1 here?
Its activation is inactive: 9.12%.

For COc1ccc(CN(CCCl)CCCl)cc1Cl, which activation is on record?
Its activation is inactive: -4.38%.

For O=C(NCC1(N2CCOCC2)CCCCC1)c1cc(F)c(F)cc1Cl, which activation is on record?
Its activation is inactive: 7.95%.

COc1cc(OC)c(C(=O)NCC2(N(C)C)CCCCC2)cc1OC was tested. Which activation did it give?
Its activation is inactive: 3.95%.

With CCOC(=O)N1CCC(Nc2ccc(C)cc2)CC1 as the compound, how does the activation read?
The activation was inactive: 3.98%.

With N/C(=N\O)c1c(N)no[n+]1[O-] as the compound, how does the activation read?
The activation was inactive: -1.53%.

O=C(OC1CN2CCC1CC2)C1c2ccccc2C=Cc2ccccc21 (stereo unspecified) was tested. Which activation did it give?
Its activation is inactive: 10.4%.

For CCc1cc(C(=O)NCC2(N3CCCCC3)CCCCC2)sc1C, which activation is on record?
Its activation is inactive: 1.08%.

How did the activation turn out when COc1cc(C(=O)NCC2(N3CCOCC3)CCCCC2)cc(OC)c1C was run?
Its activation is inactive: -0.343%.

O=C(NCC1(N2CCOCC2)CCCCC1)c1cc(Br)ccc1Cl was tested. Which activation did it give?
Its activation is inactive: -0.134%.

COc1ccc(C(=O)NCC2(N3CCOCC3)CCCCC2)cc1OC was tested. Which activation did it give?
Its activation is inactive: -1.89%.

Which activation does the source give for CN(C)C1(CNC(=O)c2cccc(C#N)c2)CCCCC1 here?
Its activation is inactive: 7.48%.

Which activation does the source give for CCCN1CCC(Nc2cc(OC)cc(OC)c2)CC1 here?
Its activation is inactive: -1.64%.

How did the activation turn out when Cc1cc(N(CCCl)CCCl)ccc1C=O was run?
The activation was inactive: 9.32%.

With c1ccc(CN2CCC(Nc3ccccc3)CC2)cc1 as the compound, how does the activation read?
The activation was inactive: 1.4%.

With N#Cc1ccc(C(=O)NCC2(N3CCCCC3)CCCCC2)cc1 as the compound, how does the activation read?
The activation was inactive: 5.02%.

How did the activation turn out when CC(C)(C)OC(=O)N1CCC(N(C(=O)c2ccccc2)c2ccc(Cl)cc2)CC1 was run?
The activation was inactive: 8.83%.

How did the activation turn out when CCN1CCC(Nc2cccc(F)c2)CC1 was run?
The activation was inactive: 9.1%.

For Cc1ccccc1NC1(C#N)CCN(Cc2ccccc2)CC1, which activation is on record?
Its activation is inactive: 2.29%.

Which activation does the source give for Cn1c(=O)[nH]cc(N(CCCl)CCCl)c1=O here?
The activation was inactive: 2.63%.

With CN(C)c1ccc(C(=O)NCC2(N3CCCCC3)CCCCC2)cc1 as the compound, how does the activation read?
The activation was inactive: 2.31%.

O=C(NCC1(N2CCCCC2)CCCCC1)c1ccco1 was tested. Which activation did it give?
The activation was inactive: -0.048%.

With CC(=O)N(c1ccccc1)C1CCNCC1 as the compound, how does the activation read?
Its activation is inactive: 3.1%.

With COc1cc(OC)cc(C(=O)NCC2(N3CCCCC3)CCCCC2)c1 as the compound, how does the activation read?
Its activation is inactive: -3.45%.

With Fc1ccccc1NC1CCN(Cc2ccccc2)CC1 as the compound, how does the activation read?
The activation was inactive: 7.73%.

Cc1ccc(C(=O)NCC2(N3CCCCC3)CCCCC2)o1 was tested. Which activation did it give?
Its activation is inactive: 1.86%.

Which activation does the source give for Cc1ccc(NC2(C#N)CCN(Cc3ccccc3)CC2)cc1 here?
Its activation is inactive: 14%.

For COc1cccc(C(=O)N(c2cc(C)cc(C)c2)C2CCN(C(=O)OC(C)(C)C)CC2)c1, which activation is on record?
Its activation is inactive: -0.817%.

COc1cc(OC)cc(C(=O)NCC2(N3CCOCC3)CCCCC2)c1 was tested. Which activation did it give?
The activation was inactive: 2.26%.

CCC(CO)(C(=O)OC1CN2CCC1CC2)c1ccccc1 (stereo unspecified) was tested. Which activation did it give?
The activation was inactive: 1.77%.

With CN1CCC(Nc2ccc(Cl)cc2)CC1 as the compound, how does the activation read?
Its activation is inactive: 13.2%.

With CN1CCC(Nc2ccc(F)c(Cl)c2)CC1 as the compound, how does the activation read?
Its activation is inactive: -4.68%.

With CCOc1ncccc1C(=O)NCC1(N2CCOCC2)CCCCC1 as the compound, how does the activation read?
Its activation is inactive: 2.16%.

O=C(O)C1(Nc2ccccc2)CCN(Cc2ccccc2)CC1 was tested. Which activation did it give?
The activation was inactive: 4.71%.

With CC(C)(C)OC(=O)N1CCC(Nc2ccccc2)CC1 as the compound, how does the activation read?
Its activation is inactive: -16.1%.

For CCCOc1ccc(C(=O)NCC2(N(C)C)CCCCC2)cc1, which activation is on record?
Its activation is inactive: 8.39%.
